Source: US20240043504A1 (published 2024)

Tests used:
MERS.hFc (mAb2664-L1) = MERS.hFc (mAb2664-L1) (MERS-CoV); assay: Luminex, supernatant
MERS.mFc (mAb2663-L1) = MERS.mFc (mAb2663-L1) (MERS-CoV); assay: Luminex, supernatant
Bt-MERS.hFc (mAb2664-L2) = Bt-MERS.hFc (mAb2664-L2) (MERS-CoV); assay: Luminex, supernatant
[1] = target: SARS-COV-2 RBD extracellular domain expressed with a C-terminal myc-myc-hexahistidine tag (SARS-COV-2 RBD-MMH) (SARS-CoV-2); assay: SPR

Binder | MFI (MERS.hFc (mAb2664-L1)) [MFI] | MFI (MERS.mFc (mAb2663-L1)) [MFI] | MFI (Bt-MERS.hFc (mAb2664-L2)) [MFI] | 90 nM Ag Bound (RU) [1] [RU] | Kd [1] [nM] | t1/2 [1] [min]
mAb10984 (antibody, V domains shown) VH: EVQLVESGGGLVQPGGSLRLSCAASGLTVNRNYMSWVRQAPGKGLEWVSLIYSGGSTYYADSVKGRFTISRDNSKNTLYLQMNSLRLEDTAVYYCARGELGIPYGMDVWGQGTTVTVSS VL: QSVLTQPPSVSAAPGQKVTISCSGSSSNIGNNYVSWYQQLPGTAPKLLIYDNNKRPSGIPDRFSGSKSGTSATLGITGLQTGDEADYYCGTWDSSLSAGVFGGGTKLTVLG | 341 | 237 | 172 |  |  | 
mAb10966 (antibody, V domains shown) VH: EVQLVESGGGLVQPGGSLRLSCAASGLTVSSNYMSWVRQAPGKGLEWVSVIYSGGSTFYADSVKGRFTISRDNSKNTLYLQMNSLRPEDTAVYYCAREGRIAATGYGMDVWGQGTTVTVSS VL: DIQMTQSPSSLSASVGDRVTITCQASQDISNYLNWYQQKPGKAPKLLIYDASNLGTGVPSRFSGSRSGTDFTFTISSLQPEDIATYYCHQYDNLPQTFGPGTKVDIKR |  |  |  | 97.4 | 1.54 | 31.6
mAb10985 (antibody, V domains shown) VH: EVQLVESGGGLVQPGRSLRLSCAASGFTFDDYAMHWVRQAPGKGLEWVSGISWNRGSIGYADSVKGRFTISRDNAKNSLYLQMSSLRAEDTALYYCAKDGERWDSVVVPSARNGMDVWGQGTTVTVSS VL: QSVLTQPPSVSGAPGQRVTISCTGSSSNIGAGYDVHWYQQLPGTAPKLLIYGNSNRPSGVPDRFSGSKSGTSASLAITGLQAEDEADYYCQSYDSSLSGSYVFGTGTKVTVLG |  |  |  | 113 | 1.08 | 7.5
mAb11004 (antibody, V domains shown) VH: QVQLVESGGGVVQPGRSLRLSCVASGFTFSIYGMDWVRQAPGKGLEWVAVISYDGSNKYYADSVKGRFTISRDNSKNTLYLQMNSLRPEDTAVYYCAKDREAAADAFDIWGQGTMVTVSS VL: DIQMTQSPSSVSASVGDRVTITCRASQGISSWLAWYQQKPGKAPKLLIYAASSLHSGVPSRFSGSGSGTDFTLTISSLQPEDFATYYCQQANSFRLTFGGGTKVEIKR |  |  |  | 76.4 | 8.54 | 3.6
mAb11006 (antibody, V domains shown) VH: EVQLVESGGGLVQPGGSLRLSCAASGFIVSRNYMSWVRQAPGKGLEWVSVIYSGGSTFYADSVKGRFTISRHNSKNTLYLQMNSLKAEDTAVYYCARELRGYFDYWGQGTLVTVSS VL: DIQLTQSPSFLSASVGDRVTITCWASQGISSYLAWYQQKPGKAPKLLIYAASTLQSGVPSRFSGSGSGTEFTLTISSLQPEDFATYYCQLLNSYPYTFGQGTKLEIKR |  |  |  | 66.9 | 4.55 | 26.3
mAb11008 (antibody, V domains shown) VH: EVQLVESGGGLVQPGGSLRLSCAASGFTVSSNYMTWVRQAPGKGLEWVSVIYSGGSTFYADSVKGRFTISRHNSENTLYLQMNSLRAEDTAVYYCARDLAAAGTDYWGQGALVTVSS VL: DIQLTQSPSFLSASVGDRVTITCWASQGISSYLAWYQQKPGKAPKLLIYAASTLQSGVPSRFSGSGSGTEFTLTISSLQPDDFATYYCQHLNSYLYTFGQGTKLEIKR |  |  |  | 40.8 | 35.2 | 3.5
mAb10934 (antibody, V domains shown) VH: not shown VL: DIQMTQSPSSLSASVGDRVTITCQASQDIWNYINWYQQKPGKAPKLLIYDASNLKTGVPSRFSGSGSGTDFTFTISSLQPEDIATYYCQQHDDLPPTFGQGTKVEIKR |  | 77 |  |  |  | 
mAb10937 (antibody, V domains shown) VH: QITLKESGPTLVKPTQTLTLTCTFSGFSLSTNVVGVGWIRQPPGKALEWLALIYWNDDKRYSPSLKSRLTITKDTSKNQVVLTMTNMDPVDTATYYCAHGPTGDYFDYWGQGTLVTVSS VL: not shown | 23 |  | 29 |  |  | 
